# Data as given in US11246922B1, “Vaccine RNA-peptide against SARS-CoV-2 with endogenous exosomes as carrier” (Elidan America, LLC., priority 2021, dated 2022).
# Key:
# in vitro [1] = settings: human
# in vitro [2] = settings: human; remark: listed apart in the source
molecule,measurement,setting,value
Phosphate-buffered saline [PBS],CC50,WM-266 cell line,456 µg/mL
same,CC50,HEK293 cell line,356 µg/mL
same,CC50,HUVEC cell line,468 µg/mL
same,CC50,BEAS-2B cell line,490 µg/mL
same,CC50,HMEC-1 cell line,451 µg/mL
CC(C)[C@H](NC(=O)CN)C(=O)N[C@@H](CC(=O)O)C(=O)N[C@@H](CCC(=O)O)C(=O)N[C@H](C(=O)N[C@@H](C)C(=O)N[C@@H](CCCCN)C(=O)N[C@@H](CCCCN)C(=O)N[C@@H](CCCCN)C(=O)N[C@@H](CO)C(=O)N[C@@H](CCCCN)C(=O)O)C(C)C [Peptide-B],CC50,in vitro [1],135 µg/mL
"OO [H2O2, Hydrogen peroxide solution, reference compound]",CC50,in vitro [2],131 µg/mL
